Results of unrelated studies side by side (data: NIAID ChemDB).

Shared fields: tests in culture; organism: Mycobacterium tuberculosis

Percent inhibition refers to the dose given; in toxicity tests it is the harm to the cells.

SMILES,strain or isolate,method,endpoint,dose,value
O=C(O)/C=C/c1ccc([N+](=O)[O-])o1,H37Rv,resazurin,inhibition,6.25 µg/mL,-9%
Cc1ccc(OC2C(=O)N(c3ccc(Cl)c(F)c3)C2c2ccc(OCC(=O)O)cc2)cc1,H37Rv,resazurin,inhibition,6.25 µg/mL,85%
COc1cc(C2=C(C(=O)Nc3ccc(S(=O)(=O)c4ccc(NC(=O)C5=C(c6cc(OC)c(OC)c(OC)c6)NC(N)=NC5C)cc4)cc3)C(C)N=C(N)N2)cc(OC)c1OC,INH resistant,,MIC,,4.5 µM
Cc1cc(=O)oc2cc(OC(=O)CNC3N=C(c4ccc(F)cc4)C=C(c4ccccc4O)S3)c([N+](=O)[O-])cc12,H37Rv,broth dilution,MIC99,,1000 µg/mL
CO[C@H]1/C=C/O[C@@]2(C)Oc3c(C)c(O)c4c(O)c(c(/C=N/N5CCN(C)CC5)c(O)c4c3C2=O)NC(=O)/C(C)=C\C=C\[C@H](C)[C@H](O)[C@@H](C)[C@@H](O)[C@@H](C)[C@H](OC(C)=O)[C@@H]1C,H37Rv (S-MTB),resazurin,MIC,,0.06 µg/mL
CC(C)C1=CC2=CCC3C(C)(CN)CCCC3(C)C2CC1CCN,H37Rv,BACTEC,MIC bound,,>12.5 µg/mL
O=[N+]([O-])[O][Ga]([O][N+](=O)[O-])[O][N+](=O)[O-],MDR isolates,,EC50,,<500 µM
N#Cc1nc2cc(C(F)(F)F)ccc2nc1Cl,H37Rv,,inhibition,12.5 µg/mL,37%
C=CCn1c(-c2ccc([N+](=O)[O-])cc2)cs/c1=N\C(P(=O)(O)O)P(=O)(O)O,H37Rv,resazurin,inhibition,6.25 µg/mL,21%
CC1=CC(=O)c2c(O)ccc(-c3ccc(O)c4c3C(=O)C(C)=CC4=O)c2C1=O,H37Rv (S-MTB),resazurin,MIC,,3.13 µg/mL
O=C(CCN1C(=O)/C(=C/c2ccc(Cl)cc2)SC1=S)NNC(=O)c1cccc2ccccc12,H37Rv,,MIC,,63.71 µM
CC1N=C(N)NC(c2ccccc2)=C1C(=O)Nc1ccc(S(=O)(=O)c2ccc(NC(=O)C3=C(c4ccccc4)NC(N)=NC3C)cc2)cc1,H37Rv,,MIC,,0.62 µM
CCCCCCCCN1C(=O)C(CC(=O)O)SC12CCCCC2,H37Ra,resazurin,EC50,,>25 µg/mL
COc1ccc(Cc2c(C)c(C#N)c3[nH]c4ccccc4n3c2=O)cc1,H37Rv,broth dilution,MIC,,0.25 µg/mL
N#Cc1nc2cc(Cl)ccc2nc1N,H37Rv,,EC50,,>12.5 µg/mL
O=C(/C=C/C(=O)N1C/C(=C\c2ccccc2)C(=O)/C(=C/c2ccccc2)C1)Nc1ccc(Cl)c(Cl)c1,H37Rv,,inhibition,6.25 µg/mL,74%
OC12CCCC(C1)SC(c1ccccc1)=N2,H37Rv,,inhibition,6.25 µg/mL,97%
NNC(=O)c1ccncc1,INH resistant,,MIC,,11.37 µM
CCCCCCCCCCCCN1C(=O)C(CC(=O)O)SC12CCN(C(=O)C(N)CCCCN)CC2,H37Ra,resazurin,inhibition,25 µg/mL,96%
C[C@H]1COC2(CCN(c3nc(=O)c4cc(C(F)(F)F)cc(C(=O)O)c4s3)CC2)O1,MDR_CHUV,resazurin,MIC99,,0.002 µg/mL
CCCCCCCCCCCCN1C(=O)CSC12CCCCC2,H37Ra,resazurin,inhibition,25 µg/mL,5%
O=NNc1cccc(NN=O)n1,H37Rv,BACTEC,inhibition,12.5 µg/mL,10%
CO[C@H]1/C=C/O[C@@]2(C)Oc3c(C)c(O)c4c(O)c(c(/C=N/N=C/N5CCCCC5)c(O)c4c3C2=O)NC(=O)/C(C)=C\C=C\[C@H](C)[C@H](O)[C@@H](C)[C@@H](O)[C@@H](C)[C@H](OC(C)=O)[C@@H]1C,H37Rv,,MIC,,0.01 µg/mL
CCC1CN(c2c(F)cc3c(=O)c(C(=O)O)cn(C4CC4)c3c2OC)CCN1,Isolate TN3541,,MIC,,0.2 µg/mL
N#Cc1ccc(-n2c(=O)oc3cc(Cl)ccc3c2=O)cc1,CNCTC MY331/88,,MIC,,8 µM
CC1N=C(N)NC(c2ccc(N(C)C)cc2)=C1C(=O)Nc1ccc(S(=O)(=O)c2ccc(NC(=O)C3=C(c4ccc(N(C)C)cc4)NC(N)=NC3C)cc2)cc1,H37Rv,,MIC,,0.94 µM
CCCCCCCCCCCCN1C(=O)C(CC(=O)O)SC12CCCCC2,H37Ra,resazurin,inhibition,25 µg/mL,97%
CO[C@H]1/C=C/O[C@@]2(C)Oc3c(C)c(O)c4c(O)c(c5sc(N)nc5c4c3C2=O)NC(=O)/C(C)=C\C=C\[C@H](C)[C@H](O)[C@@H](C)[C@@H](O)[C@@H](C)[C@H](OC(C)=O)[C@@H]1C,H37Rv,resazurin,inhibition,6.25 µg/mL,101%
O=C1/C(=C/c2ccccc2)CN(C(=O)/C=C/c2ccc(Cl)cc2)C/C1=C\c1ccccc1,H37Rv,,EC50,,>6.25 µg/mL
CC1=CC(=O)c2c(ccc(-c3ccc4c(c3O)C(=O)C=C(C)C4=O)c2O)C1=O,H37Rv (S-MTB),resazurin,MIC,,>100 µg/mL
O=C1/C(=C/c2ccccc2)CN(C(=O)/C=C/c2ccc(Cl)c(Cl)c2)C/C1=C\c1ccccc1,H37Rv,,EC50,,>6.25 µg/mL
COc1ccc2oc(=O)n(-c3ccc(C)cc3)c(=O)c2c1,CNCTC MY331/88,,MIC,,62.5 µM
CCCc1ccc(C2=CC(c3ccc(F)cc3)=NC(NCC(=O)Oc3cc4oc(=O)cc(C)c4cc3[N+](=O)[O-])S2)cc1,H37Rv,broth dilution,MIC99,,62.5 µg/mL
CC1(O)CCSC(c2ccccc2)=N1,H37Rv,,inhibition,6.25 µg/mL,19%
O=c1[nH]cnc2ncccc12,H37Rv,resazurin,inhibition,6.25 µg/mL,-8%
CC/C(C)=C(/NC(=O)[C@H](C)NC(=O)[C@@H]1CCC=NN1C(=O)[C@@H](NC(=O)[C@H](C)NC(=O)C(N)(CO)CO)[C@H](C)N)C(=O)N[C@@H](CO)C(=O)O,H37Rv,,MIC,,50 µg/mL
CC1(O)CC(c2ccccc2)SC(c2ccccc2)=N1,H37Rv,,inhibition,6.25 µg/mL,6%
O=C1/C(=C\c2ccccc2)CN(C(=O)c2ccc(/C=C/C(=O)c3ccc(Cl)c(Cl)c3)cc2)C/C1=C/c1ccccc1,H37Rv,,inhibition,6.25 µg/mL,0%
CC1=C(C2=C(C)C(=O)c3cccc(O)c3C2=O)C(=O)c2c(O)cccc2C1=O,CIBIN 99 (MDR-MTB),resazurin,MIC,,3.13 µg/mL
O=C(c1ccco1)N(C(=S)N1CCN(c2ccccc2)CC1)C1CCCCC1,H37Rv,resazurin,inhibition,6.25 µg/mL,99%
O=C(O)COc1ccc(C2C(Oc3ccc([N+](=O)[O-])cc3)C(=O)N2c2ccc(Cl)c(F)c2)cc1,H37Rv,resazurin,MIC90,,3.13 µg/mL
O=C1/C(=C/c2ccccc2)CN(C(=O)c2ccc(/C=C/C(=O)c3ccc([N+](=O)[O-])cc3)cc2)C/C1=C\c1ccccc1,H37Rv,,inhibition,6.25 µg/mL,6%
O=C(O)COc1ccc(C2C(Oc3ccc(Cl)cc3)C(=O)N2c2ccc(Cl)c(F)c2)cc1,H37Rv,resazurin,inhibition,6.25 µg/mL,100%
CCCCCCCCCCCCN1C(=O)C(CC(=O)O)SC12CCCCCC2,H37Ra,resazurin,EC50,,<25 µg/mL
Cc1ncc([N+](=O)[O-])n1CCNCCCn1ccnc1[N+](=O)[O-],H37Rv,resazurin,MIC bound,,>6.25 µg/mL
Cc1cc(=O)oc2cc(OC(=O)CNC3N=C(c4ccc(F)cc4)C=C(c4ccc(F)cc4)S3)c([N+](=O)[O-])cc12,H37Rv,broth dilution,MIC97,,>1000 µg/mL
NC(=O)c1csc(-c2ccc(CO)o2)n1,H37Rv,BACTEC,inhibition,12.5 µg/mL,8%
C=C[C@]1(C)C[C@@H](OC(=O)CSC(C)(C)CNC[C@H](N)C(C)C)[C@]2(C)[C@H](C)CC[C@]3(CCC(O)[C@H]32)[C@@H](C)[C@@H]1O,H37Rv,resazurin,MIC100,,6.25 µg/mL
COc1ccc2c3c1C(=O)CCCC3CO2,H37Rv,BACTEC,MIC bound,,>12.5 µg/mL
O=C1/C(=C\c2ccccc2)CN(C(=O)c2ccc(/C=C/C(=O)c3ccccc3)cc2)C/C1=C/c1ccccc1,H37Rv,,inhibition,6.25 µg/mL,8%
O=c1oc2ccc(F)cc2c(=O)n1-c1ccccc1,CNCTC MY331/88,,MIC,,31 µM
Cc1cc(=O)oc2cc(OC(=O)CNC3N=C(c4ccc(F)cc4)C=C(c4ccc(O)cc4)S3)c([N+](=O)[O-])cc12,H37Rv,broth dilution,MIC98,,1000 µg/mL
COC(CC1(OC)OC(=O)C=C1N)OC,H37Rv,BACTEC,MIC bound,,>12.5 µg/mL
C[C@H]1CC(=O)c2c(O)cccc2[C@H]1O,CIBIN 99 (MDR-MTB),resazurin,MIC,,>100 µg/mL
C=CNC(=O)NC(=O)CSc1nnc(-c2ccccc2NC(=O)C(F)(F)F)c(=O)[nH]1,H37Rv,BACTEC,MIC bound,,>12.5 µg/mL
O=c1oc2ccc([N+](=O)[O-])cc2c(=O)n1-c1cccc(Cl)c1,CNCTC MY331/88,,MIC,,16 µM
O=c1nc(N2CCC(c3ccccc3)CC2)sc2c([N+](=O)[O-])cc(C(F)(F)F)cc12,2745/09 MDR,,MIC,,≤0.015 µg/mL
CCCC/C(C)=N/NC(=S)SC,PZA-R,,MIC,,6.4 µg/mL
O=C(CCN1C(=O)/C(=C/c2ccc(Cl)cc2)SC1=S)NNC(=O)c1ccncc1,H37Rv,,MIC,,25.25 µM
CC1N=C(N)NC(c2ccc(F)cc2)=C1C(=O)Nc1ccc(S(=O)(=O)c2ccc(NC(=O)C3=C(c4ccc(F)cc4)NC(N)=NC3C)cc2)cc1,H37Rv,,MIC,,0.08 µM
CC(C(=O)O)n1c(=O)ssc1=O,H37Rv,BACTEC,inhibition,12.5 µg/mL,34%
CCCCCCCCN1C(=O)CS(=O)C12CCCCC2,H37Ra,resazurin,EC50,,>25 µg/mL
Cc1cc(=O)oc2cc(OC(=O)CNC3N=C(c4ccc(F)cc4)C=C(c4ccccc4Cl)S3)c([N+](=O)[O-])cc12,H37Rv,broth dilution,MIC98,,62.5 µg/mL
CO[C@H]1/C=C/O[C@@]2(C)Oc3c(C)c(O)c4c(O)c(c(/C=N/N=C/[n+]5cccc6ccccc65)c(O)c4c3C2=O)NC(=O)/C(C)=C\C=C\[C@H](C)[C@H](O)[C@@H](C)[C@@H](O)[C@@H](C)[C@H](OC(C)=O)[C@@H]1C,H37Rv,,MIC,,0.02 µg/mL
CC(C)=CCC/C(C)=C/COc1ccc(/C=C2\C(=O)N(O)[C@@H](C)C(=O)N2O)cc1,PAS-R,,MIC,,12.5 µg/mL
CC1COc2c(N3CCN(C)CC3)c(F)cc3c(=O)c(C(=O)O)cn1c23,188 strains,,MIC50,,0.25 µg/mL
CSCCC(NC(=O)C(CC(C)C)NC(=O)C1CCCN1C(=O)C(Cc1ccccc1)NC(=O)C(Cc1ccccc1)NC(=O)C(CCC(=O)O)NC(=O)OC(C)(C)C)C(N)=O,H37Rv,resazurin,inhibition,6.25 µg/mL,1%
CN1CCC(CN2c3ccccc3Sc3ccccc32)C1,K2,,MIC,,10 µg/mL
CC(=O)Nc1ccc(S(=O)(=O)n2oc(=O)c(-c3ccccc3)c2N)cc1,H37Rv,resazurin,MIC bound,,>6.25 µg/mL
COc1cc(/C=C2\SC(=S)N(CCC(=O)NNC(=O)c3ccncc3)C2=O)cc(OC)c1OC,H37Rv,,MIC,,1.55 µM
CS(=O)(=O)OCCN1C(=O)NC(c2ccccc2)(c2ccccc2)C1=O,H37Rv,BACTEC,inhibition,12.5 µg/mL,5%
CCCCCCCCN1C(=S)CSC12CCCCC2,H37Ra,resazurin,EC50,,>25 µg/mL
CNC(=O)c1ccc[n+](C2OC(COC(=O)c3ccccc3)C(OC(=O)c3ccccc3)C2OC(=O)c2ccccc2)c1.[Br-],H37Rv,BACTEC,MIC bound,,>12.5 µg/mL
CCCCCCCCN1C(=O)CSC12CCCCC2,H37Ra,resazurin,inhibition,25 µg/mL,96%
O=C(NC(=O)C1CCC(=O)N1Cc1ccccc1)NC1CCC(=O)N1Cc1ccccc1,H37Rv,BACTEC,MIC bound,,>12.5 µg/mL
CC[C@]1(C)C[C@@H](OC(=O)CSC(C)(C)CNC(=O)[C@H](N)C(C)C)[C@]2(C)[C@H](C)CC[C@]3(CCC(O)[C@H]32)[C@@H](C)[C@@H]1O,H37Rv,resazurin,MIC100,,12.5 µg/mL

The first 8 rows once more:

SMILES | strain or isolate | method | endpoint | dose | value
O=C(O)/C=C/c1ccc([N+](=O)[O-])o1 | H37Rv | resazurin | inhibition | 6.25 µg/mL | -9%
Cc1ccc(OC2C(=O)N(c3ccc(Cl)c(F)c3)C2c2ccc(OCC(=O)O)cc2)cc1 | H37Rv | resazurin | inhibition | 6.25 µg/mL | 85%
COc1cc(C2=C(C(=O)Nc3ccc(S(=O)(=O)c4ccc(NC(=O)C5=C(c6cc(OC)c(OC)c(OC)c6)NC(N)=NC5C)cc4)cc3)C(C)N=C(N)N2)cc(OC)c1OC | INH resistant |  | MIC |  | 4.5 µM
Cc1cc(=O)oc2cc(OC(=O)CNC3N=C(c4ccc(F)cc4)C=C(c4ccccc4O)S3)c([N+](=O)[O-])cc12 | H37Rv | broth dilution | MIC99 |  | 1000 µg/mL
CO[C@H]1/C=C/O[C@@]2(C)Oc3c(C)c(O)c4c(O)c(c(/C=N/N5CCN(C)CC5)c(O)c4c3C2=O)NC(=O)/C(C)=C\C=C\[C@H](C)[C@H](O)[C@@H](C)[C@@H](O)[C@@H](C)[C@H](OC(C)=O)[C@@H]1C | H37Rv (S-MTB) | resazurin | MIC |  | 0.06 µg/mL
CC(C)C1=CC2=CCC3C(C)(CN)CCCC3(C)C2CC1CCN | H37Rv | BACTEC | MIC bound |  | >12.5 µg/mL
O=[N+]([O-])[O][Ga]([O][N+](=O)[O-])[O][N+](=O)[O-] | MDR isolates |  | EC50 |  | <500 µM
N#Cc1nc2cc(C(F)(F)F)ccc2nc1Cl | H37Rv |  | inhibition | 12.5 µg/mL | 37%

An empty or dashed field is not shown. ECn: concentration that inhibits the pathogen or its effect by n%. A number after MIC or MFC names an inhibition level or a share of isolates. MIC bound: limit read from a one-dose screen. Neighbouring rows are from separate reports.